Pooled drug test results. Numbers come from NIAID ChemDB, via PubChem.

Shared fields: tests in culture

Percent inhibition refers to the dose given; in toxicity tests it is the harm to the cells.

smiles,endpoint,dose,strain,cells,method,changes,species,value
OC[C@@H]1CC[C@H](n2cnc3c(NC4CC4)ncnc32)O1,EC50,,KV1772,Sheep chondrocytes G81092,cytopathic effect,,Maedi-visna virus,0.15 µM
NC(=O)c1nc(F)c[nH]c1=O,EC50,,Influenza A/Ibaraki/1/90 (H3N2),MDCK,plaque count,,Influenza A virus,0.3 µg/mL
Oc1ccc2oc3ccccc3c2c1,inhibition,20 µM,TYPE 16,HELA-H1,plaque count,,Rhinovirus,80%
CO/N=C1\CN(c2nc3c(cc2F)c(=O)c(C(=O)O)cn3C2CC2)CC1CN,MIC90,,25 strains (methicillin-susceptible),,,,Staphylococcus aureus,≤0.06 µg/mL
NC(=O)c1ncn([C@@H]2O[C@H](CO)[C@@H](O)[C@H]2O)n1,EC50,,,VERO 76,cytopathic effect,,Pichinde virus,3.2–10 µg/mL
C[C@H](Cc1ccc(O)c(O)c1)[C@@H](C)Cc1ccc(O)c(O)c1,MIC80,,CCC 125-2000,,broth dilution,,Candida albicans,250 µg/mL
Nc1cc(Cl)nc2c1ncn2[C@H]1C[C@H](O)[C@@H](CO)O1,EC50,,KV1772,Sheep chondrocytes G81092,cytopathic effect,,Maedi-visna virus,15 µM
C[C@H](Cn1cnc2c(N)nc(N)nc21)OCP(=O)(O)O,EC50,,GS,HSB-2,antigen / flow cytometry,,Human herpesvirus 6,>300 µM
NC(=O)c1ncn([C@@H]2O[C@H](CO)[C@@H](O)[C@H]2O)n1,EC50,,TYPE 2,HEL,PCR,,Adenovirus,>100 µM
Nc1ccn(C[C@@H](CO)OCP(=O)(O)O)c(=O)n1,EC50,,ACV-resistant,HEL,plaque count,,Varicella zoster virus,0.027 µg/mL
COc1c(O)c(Cl)c(Cl)c(Cl)c1Cl,MIC,,288C,,,,Saccharomyces cerevisiae,50 µg/mL
Nc1nc(N)c2ncn(C[C@@H](CO)OCP(=O)(O)O)c2n1,EC50,,GS,HSB-2,cytopathic effect,,Human herpesvirus 6,26 µM
OC[C@H]1O[C@@H](n2cnc3c(NC4CCCC4)nc(Cl)cc32)[C@H](O)[C@@H]1O,EC50,,KV1772,Sheep chondrocytes G81092,cytopathic effect,,Maedi-visna virus,1.5 µM
Nc1nc2c(ncn2[C@@H]2C[C@H](CO)[C@H]2CO)c(=O)[nH]1,EC50,,GS,HSB-2,cytopathic effect,,Human herpesvirus 6,7.4 µM
CN(C)[C@@H]1C(=O)C(C(N)=O)=C(O)[C@@]2(O)C(=O)C3=C(O)c4c(O)c(NC(=O)CNC(F)(F)F)cc(F)c4C[C@H]3C[C@@H]12,EC50,,101-29213,,agar diffusion,,Staphylococcus aureus,1 µg/mL
O=c1ccn([C@H]2C[C@H](F)[C@@H](CO)O2)c(=O)[nH]1,EC50,,TYPE 2,HEL,cytopathic effect,,Adenovirus,>100 µM
CC(C)OC(=O)OCOP(=O)(CO[C@H](C)Cn1cnc2c(N)ncnc21)OCOC(=O)OC(C)C,EC50,,ROD9,MAGIC-5A,β-galactosidase / absorbance,,HIV-2,0.0064 µM
CCCN1CCN(c2cc(=O)c3nc4c(oc3c2)c2c(=O)c3c(O)c(C)c5c(c34)=C(O)[C@@](C)(O/C=C/[C@H](OC)[C@@H](C)[C@@H](OC(C)=O)[C@H](C)[C@H](O)[C@H](C)[C@@H](O)[C@@H](C)/C=C/C=C(/C)C(=O)N2)O5)CC1,MIC,,ATCC 25923,,,,Staphylococcus aureus,0.0078 µg/mL
C[C@H]1COc2c(N3CCN(C)CC3)c(F)cc3c(=O)c(C(=O)O)cn1c23,MIC,,Clinical isolate 6678,,,,Streptococcus pneumoniae,4 µg/mL
C#C[C@]1(CO)O[C@@H](n2cnc3c(N)nc(F)nc32)CC1O,fold resistance,,ROD9,MAGIC-5A,β-galactosidase / absorbance,Q151M,HIV-2,1
Nc1ncnc2c1ncn2[C@H]1CC[C@@H](CO)O1,EC50,,KV1772,Sheep chondrocytes G81092,cytopathic effect,,Maedi-visna virus,0.41 µM
CC[C@H]1OC(=O)[C@H](C)[C@@H](O[C@H]2C[C@@](C)(OC)[C@@H](O)[C@H](C)O2)[C@H](C)[C@@H](O[C@@H]2O[C@H](C)C[C@H](N(C)C)[C@H]2O)[C@](C)(O)C[C@@H](C)CN(C)[C@H](C)[C@@H](O)[C@]1(C)O,inhibition,20 µg/mL,,MRC-5 fibroblasts,cytopathic effect,,Encephalitozoon cuniculi,0%
O=C[C@@H](CO)O[C@H](C=O)n1ccc(=O)[nH]c1=O,EC50,,NEW YORK,VERO,cytopathic effect / visual reading,,West Nile virus,>250 µg/mL
CO[C@H]1/C=C/O[C@@]2(C)Oc3c(C)c(O)c4c(O)c(c5c(c4c3C2=O)NC2(CCN(CC(C)C)CC2)N=5)=NC(=O)/C(C)=C\C=C\[C@H](C)[C@H](O)[C@@H](C)[C@@H](O)[C@@H](C)[C@H](OC(C)=O)[C@@H]1C,MIC50,,16 strains (methicillin- quinolone-resistant),,,,Staphylococcus aureus,0.0313 µg/mL
Nc1ncnc2c1ncn2C[C@@H](CO)OCP(=O)(O)O,EC50,,HPMPC-resistant,C1271,plaque count,,Mouse cytomegalovirus,11 µM
CCO/N=C/c1ccc(OCCC2CCN(c3ccc(C)nn3)CC2)cc1,EC50,,FO2-2547 (ICAM-1 receptor group 70),KB,neutral red,,Rhinovirus,2.174 µM
OC[C@H]1O[C@@H](n2cnc3c(NC4CCCCCC4)cc(Cl)nc32)C[C@@H]1O,EC50,,IRB-LA,MDBK,cytopathic effect,,Bovine herpesvirus 1,>50 µM
O=C(O)P(=O)(O)O,EC50,,PCV-resistant/A,HEL,plaque count,,Varicella zoster virus,98 µg/mL
O=c1[nH]c(=O)n([C@@H]2O[C@H](CO)[C@@H](O)[C@H]2O)[nH]c1=S,EC50,,Uganda,VERO,cytopathic effect / visual reading,,West Nile virus,100 µg/mL
Nc1nc(N)c2ncn(CCOCP(=O)(O)O)c2n1,EC50,,HPMPC-resistant,C1271,plaque count,,Mouse cytomegalovirus,0.3 µM
Nc1cc(OC[C@@H](CO)OCP(=O)(O)O)nc(N)n1,EC50,,TYPE 2,HEL,,,Adenovirus,14 µM
Nc1ccc(S(=O)(=O)Nc2ncccn2)cc1,inhibition,10 µg/mL,,MRC-5 fibroblasts,cytopathic effect,,Encephalitozoon cuniculi,0%
NC1CCN(c2nc3c(cc2F)c(=O)c(C(=O)O)cn3-c2ccc(F)cc2F)C1,MIC50,,24 strains (ofloxacin-susceptible),,,,Staphylococcus aureus,0.06 µg/mL
COc1c(C)c2c(c(O)c1CC(=O)O)C(=O)OC2,EC50,,TYPE 3/C243,VERO,plaque count,,Parainfluenza virus,0.1 µg/mL
COc1cc(Cc2cnc(N)nc2N)cc(OC)c1Br,MBC,,Isolate 94-886,,,,Mycobacterium ulcerans,32 µg/mL
COc1c(C)c2c(c(O)c1C/C=C(\C)CCC(=O)O)C(=O)OC2,EC50,,NEW YORK,MA-104,virus yield,,West Nile virus,<0.3 µg/mL
CN(C)c1cc(NC(=O)CNC(C)(C)C)c(O)c2c1C[C@H]1C[C@H]3[C@H](N(C)C)C(=O)C(C(N)=O)=C(O)[C@@]3(O)C(=O)C1=C2O,MIC,,X34,,broth dilution,,Mycobacterium massiliense,1 µg/mL
Nc1nc2c(ncn2COC(CO)CO)c(=O)[nH]1,EC50,,WILD TYPE,C1271,plaque count,,Mouse cytomegalovirus,6 µM
Nc1ccn([C@@H]2C=C(CO)[C@@H](O)[C@@H]2O)c(=O)n1,EC50,,NEW YORK,MA-104,virus yield,,West Nile virus,<1.4 µg/mL
Nc1nc(Cl)cc2c1ncn2[C@@H]1O[C@H](CO)C[C@H]1O,EC50,,IRB-LA,MDBK,cytopathic effect,,Bovine herpesvirus 1,>50 µM
COc1cc2oc(=O)ccc2cc1CC(O)C(C)(C)O,MIC,,,,,,Pseudomonas aeruginosa,125 µg/mL
Nc1nc(N)c2nnn(C[C@@H](CO)OCP(=O)(O)O)c2n1,EC50,,GS,HSB-2,antigen / flow cytometry,,Human herpesvirus 6,>300 µM
OC[C@@H]1C[C@@H](O)[C@H](n2cnc3c(NC4CCCCCC4)cc(Cl)nc32)O1,EC50,,KV1772,Sheep chondrocytes G81092,cytopathic effect,,Maedi-visna virus,0.15 µM
Nc1nccc2c1ncn2[C@@H]1C=C(CO)[C@@H](O)[C@H]1O,EC50,,NEW YORK,VERO,cytopathic effect / visual reading,,West Nile virus,>100 µg/mL
C#CC[C@@H](C(=O)N[C@H](/C=C/C(=O)OCC)C[C@@H]1CCNC1=O)n1cccc(NC(=O)c2cc(C)on2)c1=O,EC50,,Serotype 68,H1-HELA,cytopathic effect / XTT,,Rhinovirus,0.076 µM
Nc1ncnc2c1ncn2C[C@@H](CO)OCP(=O)(O)O,EC50,,OKA,HEL,plaque count,,Varicella zoster virus,0.015 µg/mL
COc1cc(Cc2cnc(N)nc2N)cc(OC)c1OC,MIC,,ATCC 19423,,,,Mycobacterium ulcerans,>16 µg/mL
Nc1nc2c(ncn2CCC(CO)CO)c(=O)[nH]1,EC50,,PMEA-resistant,HEL,plaque count,,Varicella zoster virus,4.9 µg/mL
Nc1nc2c(ncn2C[C@@H](CO)OCP(=O)(O)O)c(=O)[nH]1,EC50,,GS,HSB-2,cytopathic effect,,Human herpesvirus 6,4.9 µM
Nc1nc2c(ncn2COCCOCP(=O)(O)O)c(=O)[nH]1,EC50,,HPMPC-resistant,C1271,plaque count,,Mouse cytomegalovirus,3.1 µM
Cc1ncc([N+](=O)[O-])n1CCO,inhibition,10 µg/mL,,MRC-5 fibroblasts,cytopathic effect,,Encephalitozoon cuniculi,3%
Nc1ccnc2c1ncn2[C@@H]1O[C@H](CO)C[C@H]1O,EC50,,KV1772,Sheep chondrocytes G81092,cytopathic effect,,Maedi-visna virus,4.1 µM
C[C@@H]1CN(c2c(F)c(N)c3c(=O)c(C(=O)O)cn(C4CC4)c3c2F)C[C@H](C)N1,inhibition,5 µg/mL,,MRC-5 fibroblasts,cytopathic effect,,Encephalitozoon cuniculi,0%
O=c1c2ccccc2ccc2ccccc12,inhibition,50 µM,TYPE 16,HELA-H1,plaque count,,Rhinovirus,100%
CC(=O)NC[C@H]1CN(c2ccc(N3CCOCC3)c(F)c2)C(=O)O1,MIC90,,Penicillin-susceptible,,,,Streptococcus pneumoniae,1 µg/mL
Nc1ncc2c(ncn2COC(CO)CO)n1,EC50,,GS,HSB-2,antigen / flow cytometry,,Human herpesvirus 6,0.02 µM
OC1c2ccccc2CCc2ccccc21,EC50,,TYPE 14,HELA-H1,cytopathic effect,,Rhinovirus,50 µM
Nc1nc(=O)n([C@@H]2CS[C@H](CO)O2)cc1F,EC90,,,PBMC,p27 / ELISA,,SIV,0.58 µM
CN(C)c1ccc(O)c2c1C[C@H]1C[C@H]3[C@H](N(C)C)C(=O)C(C(N)=O)=C(O)[C@@]3(O)C(=O)C1=C2O,EC50,,,MRC-5 fibroblasts,cytopathic effect,,Encephalitozoon cuniculi,~50 µg/mL
Nc1nccc2c1ncn2C[C@H]1COP(=O)(O)CO1,EC50,,GS,HSB-2,cytopathic effect,,Human herpesvirus 6,3.6 µM
O=C(O)P(=O)(O)O,EC50,,Foscarnet-resistant,C1271,plaque count,,Mouse cytomegalovirus,640 µM
N[C@@H]1CN(c2c(F)cc3c(=O)c(C(=O)O)cn([C@@H]4C[C@@H]4F)c3c2Cl)CC12CC2,MIC50,,38 strains (ampicillin-susceptible),,,,Haemophilus influenzae,≤0.004 µg/mL
NC(=O)c1ncn([C@@H]2O[C@H](CO)[C@@H](O)[C@H]2O)n1,EC50,,N869,HEP-2,plaque count,,Respiratory syncytial virus,11.9 µM
Nc1[nH]c(=O)ncc1F,inhibition,100 µg/mL,,MRC-5 fibroblasts,cytopathic effect,,Encephalitozoon cuniculi,0%
C=CCc1ccc(O)c(-c2ccc(O)c(CC=C)c2)c1,MIC,,YL 331,,broth dilution,,Candida albicans,128 µg/mL
CCCCCCCCCC(=O)N[C@H]1[C@H](Oc2c3cc4cc2Oc2ccc(cc2Cl)[C@@H](O[C@@H]2O[C@H](CO)[C@@H](O)[C@H](O)[C@H]2NC(C)=O)[C@@H]2NC(=O)[C@H](NC(=O)[C@@H]4NC(=O)[C@H]4NC(=O)[C@@H](Cc5ccc(c(Cl)c5)O3)NC(=O)[C@H](N)c3ccc(O)c(c3)Oc3cc(O)cc4c3)c3ccc(O)c(c3)-c3c(O[C@H]4O[C@H](CO)[C@@H](O)[C@H](O)[C@@H]4O)cc(O)cc3[C@H](C(=O)O)NC2=O)O[C@H](CO)[C@@H](O)[C@@H]1O,MIC50,,25 strains (methicillin-susceptible),,,,Staphylococcus aureus,0.5 µg/mL
Nc1ncnc2c1ncn2C[C@@H](CO)OCP(=O)(O)O,EC50,,TYPE 2,HEL,cytopathic effect,,Adenovirus,0.66 µM
Nc1ccn(C[C@H]2COP(=O)(O)CO2)c(=O)n1,EC50,,GS,HSB-2,cytopathic effect,,Human herpesvirus 6,6.3 µM
CC[C@H]1OC(=O)[C@H](C)[C@@H](O[C@H]2C[C@@](C)(OC)[C@@H](O)[C@H](C)O2)[C@H](C)[C@@H](O[C@@H]2O[C@H](C)C[C@H](N(C)C)[C@H]2O)[C@](C)(OC)C[C@@H](C)C(=O)[C@H](C)[C@@H](O)[C@]1(C)O,MIC,,V139,,broth dilution,,Mycobacterium abscessus,16 µg/mL

Repeating the final 3 entries:

| smiles | endpoint | dose | strain | cells | method | changes | species | value |
|---|---|---|---|---|---|---|---|---|
| Nc1ncnc2c1ncn2C[C@@H](CO)OCP(=O)(O)O | EC50 |  | TYPE 2 | HEL | cytopathic effect |  | Adenovirus | 0.66 µM |
| Nc1ccn(C[C@H]2COP(=O)(O)CO2)c(=O)n1 | EC50 |  | GS | HSB-2 | cytopathic effect |  | Human herpesvirus 6 | 6.3 µM |
| CC[C@H]1OC(=O)[C@H](C)[C@@H](O[C@H]2C[C@@](C)(OC)[C@@H](O)[C@H](C)O2)[C@H](C)[C@@H](O[C@@H]2O[C@H](C)C[C@H](N(C)C)[C@H]2O)[C@](C)(OC)C[C@@H](C)C(=O)[C@H](C)[C@@H](O)[C@]1(C)O | MIC |  | V139 |  | broth dilution |  | Mycobacterium abscessus | 16 µg/mL |

Fold resistance: result on the changed form divided by that on wild type. MIC50, MIC90 and the like: level of inhibition, or share of isolates inhibited. Blank or dashed fields: not listed here. Rows are shuffled and stem from different studies. a–b is a range or a potency band. ECn: concentration that inhibits the pathogen or its effect by n%.